We go through 6 compounds from PubChem BioAssay.

“And” between values parts separate entries of the source, which are not always exact repeats. Equal entries are not always repeated. The entries are a selection whose mix differs from that of the whole data set. The source made the active and inactive calls. Rule as the data show it, unless noted: active = inhibition above about 37%; inactive = the rest.

In assay [1] the test system is Hepatitis C virus NS3 helicase. Put plainly: blockers of NS3h binding to ssDNA – biochemical, fluorescence polarization, LOPAC1280 library, primary screen (AID 687035). Conditions: Purified HCV NS3 helicase, Cy5-dT15 ssDNA binding fluorescence polarization; stronger effect = higher value; concentration not given here.
Assay [2] in a line: compounds altering Cy5-DNA-NS3h complex signal – biochemical, LOPAC1280, artefact control for HCV NS3 helicase inhibitor project (AID 687037; call rule not given here). The settings on record: Cy5-DNA-NS3h complex fluorescence interference counterscreen.
The nature of assay [3]: P. berghei load reduction in hepatocytes – cell-based, HepG2, luciferase luminescence, HepG2 viability, primary screen (AID 624349; in the data active = parasite load remaining mostly below about 12%, no sharp cut-off; inactive = mostly above about 10%;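 also: 100% = mean of DMSO negative control wells on the same plate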). The settings on record: P. berghei liver stage in HepG2, luciferase luminescence; stronger effect = lower value; concentration not given here.

Turning to `CN(C(=O)Cc1ccc(Cl)c(Cl)c1)[C@H]1CCCC[C@@H]1N1CCCC1`, the inhibition in assay [1] is inactive: -4%. In addition, the fluorescence ratio (interference) in assay [2] was inactive: 1.
On the same counts, the results for `CN(C(=O)Cc1ccc(Cl)c(Cl)c1)[C@@H]1CC[C@]2(CCCO2)C[C@H]1N1CCCC1` are inactive: -5% and inactive: 1.
On the same counts, the results for `CN(C(=O)Cc1ccccc1)[C@@H]1CC[C@]2(CCCO2)C[C@H]1N1CCCC1` are inactive: -1% and inactive: 1.
On the same counts, the results for `CN(C(=O)Cc1ccc(Cl)c(Cl)c1)[C@@H]1CCCC[C@@H]1N1CCCC1` are inactive: -5% and inactive: 1.
`CN(CCCl)Cc1cc(Cl)c(NC2=NCCN2)c(Cl)c1`: the inhibition in assay [1] was inactive: -4%. Also, the fluorescence ratio (interference) in assay [2] is inactive: 1.
For the compound `NC(=O)Nc1ccc([As](=O)(O)O)cc1`, the parasite load remaining in assay [3] is inactive: 110% and inactive: 74.2%.
